According to article PMC11612176 (The EMBO Journal, 2024):

Target: T1, RadA WT (EMSA) (Streptococcus pneumoniae (R800 derivative)) (UniProt A0A237IXT5)
T1 sequence (looked up, limits assumed): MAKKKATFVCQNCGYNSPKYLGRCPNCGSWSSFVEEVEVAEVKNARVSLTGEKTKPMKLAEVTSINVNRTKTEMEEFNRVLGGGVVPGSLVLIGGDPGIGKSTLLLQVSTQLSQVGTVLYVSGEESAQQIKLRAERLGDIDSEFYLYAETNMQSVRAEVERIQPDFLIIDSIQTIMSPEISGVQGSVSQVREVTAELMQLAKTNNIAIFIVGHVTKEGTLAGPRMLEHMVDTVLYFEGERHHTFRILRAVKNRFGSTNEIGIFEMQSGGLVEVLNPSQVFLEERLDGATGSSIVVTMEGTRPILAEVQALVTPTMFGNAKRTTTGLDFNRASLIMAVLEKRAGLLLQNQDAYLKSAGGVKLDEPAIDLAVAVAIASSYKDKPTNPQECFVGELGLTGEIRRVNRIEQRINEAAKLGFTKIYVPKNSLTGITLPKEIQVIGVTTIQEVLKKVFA
Assay: EMSA
Conditions: 10 mM Mg acetate, 100-900 nM protein, 10 nM DNA, EMSA: 50 mM Tris pH 7.5, 100 mM NaCl (printed as 100 M), 1 mM DTT, 0.1 mg/mL BSA, 6% glycerol, room temperature 15-20 min, recombinant protein, protein details: Strep-tag II-GFP removed by TEV

Sequence	binding result (label: 3'-Cy3 on strand 1)	binding result (label: 3'-Cy3, single-stranded DNA)
AATCATGGTCATAGCTGTTTCCTGTGTGAATAGCAATGTAATCGTCTATGACGTTAAACCATCGATAGCAGCACCGTAATCAGTAGCGACAGAATCAAGT (double strand) [Ovio9/Olea41 dsDNA 100 bp]	binds	–
AATCATGGTCATAGCTGTTTCCTGTGTGAATAGCAATGTAATCGTCTATGACGTTAAACCATCGATAGCAGCACCGTAATCAGTAGCGACAGAATCAAGT [Ovio9 ssDNA 100 nt]	–	binds

The exact form of at least one protein or probe is not confirmed. At least one verdict rests on a figure or table, not on a statement of the authors. Where a protein sequence is shown, tags need not be part of it.
